Measurements reported in PubChem BioAssay AID504761 (Drosophila RNAi Screening Center, 2011).
The screen tested about 22,000 reagents; shown is an unselected part of those with a known target gene and a result. Over the whole deposit, 116 (0.52%) got an active call. 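Calls depend on retest data that are not deposited; infection was ranked per plate without normalising between plates; the unit of the infection score is not given.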 Raw values vary from plate to plate and are shown uncorrected. Reagents against one gene are numbered here. A plus sign joins genes that one reagent is predicted to hit. Not given: the amount of reagent, the time to read-out.

Assay: 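Insect host genes that dengue virus relies on to spread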 (primary screen)
System: D.Mel-2 cells from Drosophila
Knock-down reagent: long dsRNA against Drosophila genes
Conditions: infection with dengue virus type 2; dose and infection time not stated
Detection: 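Cells stained for dengue envelope protein and imaged; percent of infected cells per well on duplicate plates, ranked by infection, with stained nuclei counted for cell number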
Reading the numbers: infection score: higher = more virus-infected cells; cell count: higher = more cells in the well
Hit rule: 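Very low infection ranking in both replicate wells (chance probability at most 0.065), then a retest showing infection dropped 1.5-fold or more at p below 0.05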
Calls: active = confirmed: knock-down lowers infection; inactive = not picked or not confirmed

The first 4 records, to show the layout:
infection score, replicate 1	infection score, replicate 2	cell count, replicate 1	cell count, replicate 2	call	gene knocked down	reagent
2.1	3.78	6580	6025	inactive	CG12605	1
		374	402	inactive	CG12605	2
4.79	4.36	6101	6260	inactive	CG6304	1
6.44	28.5	6153	5997	inactive	CG6304	2

Main list, repeating the preview:
infection score, replicate 1	infection score, replicate 2	cell count, replicate 1	cell count, replicate 2	call	gene knocked down	reagent
2.1	3.78	6580	6025	inactive	CG12605	1
		374	402	inactive	CG12605	2
4.79	4.36	6101	6260	inactive	CG6304	1
6.44	28.5	6153	5997	inactive	CG6304	2
2.69	15.1	6613	6462	inactive	CG16749	1
4.35	3.74	5534	5398	inactive	CG16749	2
2.91	15.5	6525	6371	inactive	CG13060	1
1.01	7.86	594	6415	inactive	CG13060	2
8.1	10.1	6283	6432	inactive	tup	1
2.03	7.55	6765	6704	inactive	tup	2
1.07	1.02	6355	6007	inactive	wcy	1
7.46	3.21	4880	5538	inactive	wcy	2
19.7	27.3	4642	5918	inactive	HisCl1	1
1.96		357	334	inactive	CG4318	1
2.16	9.78	5979	5921	inactive	CG10887	1
7.15	7.64	6658	6732	inactive	CG10887	2
26.3	10.3	4349	6536	inactive	Cpr47Ed	1
0.14	1.13	6404	6118	inactive	Kank	1
4.91	3.91	6478	6756	inactive	Kank	2
5.53	1.46	3328	5566	inactive	KdelR	1
10.2	16.8	5947	4865	inactive	Cpr57A + Obp57d	1
4.88	3.03	6967	6672	inactive	Cpr57A + Obp57d	2
17.8	3.41	1351	1319	inactive	eIF2gamma	1
25.4	20.4	6214	6444	inactive	eIF2gamma	2
28.2	13.8	4570	3083	inactive	eIF2gamma	3
22.2	19.1	5479	5440	inactive	CG33639	1
2.15	7.05	6846	6580	inactive	CG33639	2
11.2	1.85	6830	6210	inactive	CG33639	3
5.15	6.97	6621	6525	inactive	CG10171	1
1.76	3.24	6529	5736	inactive	CG10171	2
1.79	4.57	5977	6865	inactive	CG31922	1
0.73	1.11	6334	5948	inactive	CG31922	2
8.91	6.68	1942	6808	inactive	CG18273	1
3.8	6.24	5717	6685	inactive	CG18273	2
3.31	8.76	6441	6476	inactive	ATPsynCF6	1
3.26	6.43	6251	5958	inactive	CG15019	1
30	6.11	5313	6380	inactive	Syx18	1
3.79	3.49	6365	6111	inactive	Duox	1
1.42	6.42	5846	5855	inactive	ringer	1
